## Screening data, single-dose tests

The filed quantity is “Percent Effect” (%).
How 0% and 100% were set is not recorded. Most values in the screen are low, and negative values occur.
This is part of a subset picked to be rich in strong results.
Two or more numbers in one place are separate tests of the same structure; such repeats can differ widely.

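Phenotypic screen: M. tuberculosis growth, cholesterol and DPPC medium, 4 days; the read-out is not stated. Compounds at 50 µM. The record gives no direction; compounds that gave an IC50 in retests scored well above the rest, so higher reads as more growth inhibition. About 69,000 compounds were tested under these conditions; 0.54% (about 370) showed 50% or more at least once.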

{"structure": "COCCn1cncc1CN1CCCC(C)(c2ccccc2)C1", "stereo": "stereo not given", "effect": -30.45}
{"structure": "N#Cc1cccc(N2CCCC(CO)(Cc3ccccc3F)C2)n1", "stereo": "stereo not given", "effect": 87.33}
{"structure": "Br.CCOc1ccc(N(CC(=O)c2ccccc2)C2=NCCCCC2)cc1", "effect": 76.47}
{"structure": "O=C(c1ccc(Cn2cnnn2)cc1)N1CC[C@H](CO)[C@H](O)C1", "effect": -24.28}
{"structure": "Cc1ccccc1N1CCN(c2nc(N(C)C)nc3c2CCNC3)CC1", "effect": 71.18}
{"structure": "O=S(=O)(CCSc1nccn1C1CC1)c1ccccc1", "effect": 7.921}
{"structure": "O=C(NCCc1ccccc1Cl)NCC1(O)CCSC1", "stereo": "stereo not given", "effect": 7.611}
{"structure": "NC(=O)N1CCC2(CC1)CN(c1ccsc1)C(=O)CO2", "effect": -25.67}
{"structure": "CCc1cnc(N)nc1NC(C)c1cnn(C)c1", "stereo": "stereo not given", "effect": -16.22}
{"structure": "O=C(NCc1cnn2cccnc12)c1cccc(CC2CCNCC2)c1", "effect": 53.27}
{"structure": "CCC1c2ccc(C)n2CCN1C(=O)Cn1cnc2sc(C)cc2c1=O", "stereo": "stereo not given", "effect": "3.893 and 6.641"}
{"structure": "FC(F)(F)c1ccc2nc([C@H]3CCN(C4CCCCC4)C3)[nH]c2c1", "effect": 54.09}
{"structure": "CCOc1ccc(CN2CCc3nc4ccsc4c(=O)n3CC2)cc1.Cl", "effect": 50.05}
{"structure": "CCSc1ncc(CN2CCN(c3ncc(C)c(N)n3)CC2)cn1", "effect": 56.12}
{"structure": "CN(Cc1cnccn1)S(=O)(=O)c1ccc(C(F)(F)F)nc1", "effect": 103.5}
{"structure": "COCc1cccc(NC(C(N)=O)c2ccc(Br)cc2)c1", "stereo": "stereo not given", "effect": -2.632}
{"structure": "O=C(NC1CCN(c2ncccn2)CC1)c1sccc1C1CC1", "effect": -2.505}
{"structure": "CCOc1ccc(Cl)cc1CNCCCn1ccnc1", "effect": -16.58}
{"structure": "O=C(CCc1ccco1)Nc1cc(C(F)(F)F)c[nH]c1=O", "effect": -16.14}
{"structure": "CC(Cn1cccn1)NCc1csc(-c2cccs2)n1", "stereo": "stereo not given", "effect": -21.71}
{"structure": "O=C(CCC(=O)N1CCC(Oc2ncccc2Br)CC1)c1ccccc1", "effect": 58.14}
{"structure": "Cc1nc2n(n1)CC(NCc1nc(C)c(C)o1)CC2", "stereo": "stereo not given", "effect": -0.445}
{"structure": "CCOCCN1CCN(C(C)C(=O)Nc2ccnn2C(C)C)CC1", "stereo": "stereo not given", "effect": 2.55}
{"structure": "Cn1c2c(c(=O)n1C)CN(C(=O)c1ccco1)CCC2", "effect": "62.51 and -26.21"}
{"structure": "COc1ccc(OC)c(CN2CCc3nc4ccsc4c(=O)n3CC2)c1.Cl", "effect": 6.048}
{"structure": "COCCC(=O)N1CCCC(CCc2ccc(F)c(F)c2)C1", "stereo": "stereo not given", "effect": 29.39}
{"structure": "O=C1N(Cc2ccc(F)c(F)c2)CCCC12CCN(C1CCCC1)C2", "stereo": "stereo not given", "effect": 32.95}
{"structure": "CC1CCCCN1C(=O)c1coc(COc2cccc3cnccc23)n1", "stereo": "stereo not given", "effect": "42.34 and 56"}
{"structure": "CN(C)S(=O)(=O)c1ccc(CN2CCC(C(N)=O)CC2)o1", "effect": 16.02}
{"structure": "CCc1ccccc1NC(=O)NCc1nnc(SC)n1C", "effect": "4.11 and 72.7"}
{"structure": "CCc1nnc(CN(C)Cc2nc(-c3ccccc3Cl)oc2C)o1", "effect": -5.626}
{"structure": "O=C(Cc1ccc2c(c1)CCCC2)Nc1cccnc1N1CCSCC1", "effect": 82.11}
{"structure": "O=C(NCCCN1CCOCC1)c1ccc(-c2ccccc2)[nH]c1=O", "effect": -23.28}
{"structure": "COC(=O)c1ncccc1N1CCC(C(O)c2ccccc2)CC1", "stereo": "stereo not given", "effect": -24.55}
{"structure": "Cc1cc(C(=O)NCCCn2nccc2C2CC2)c(=O)[nH]c1C", "effect": "-9.475 and -5.55"}
{"structure": "FC1(F)CCN(Cc2ccncc2)CC12CCN(c1cnccn1)C2.O=C(O)C(F)(F)F.O=C(O)C(F)(F)F.O=C(O)C(F)(F)F", "stereo": "stereo not given", "effect": 6.976}
{"structure": "CNC(=O)CN(C)c1cncc(OCC(C)C)n1", "effect": 1.899}
{"structure": "CC(C)Cc1nnc(NCc2ccsc2)o1", "effect": 53.63}
{"structure": "CN1N=C(C(=O)NCc2ccc3c(c2)CCCN3C)CCC1=O", "effect": 4.742}
{"structure": "CCNC(=O)c1ccnc(N2CCCC(COc3ccccc3C)C2)c1", "stereo": "stereo not given", "effect": 15.97}
{"structure": "Oc1cccc(CNCc2ccc(-n3cncn3)nc2)c1", "effect": -14.43}
{"structure": "CN(C)CCN1CCOCC2(C1)CN(Cc1ccsc1)CCO2.O=C(O)C(F)(F)F.O=C(O)C(F)(F)F.O=C(O)C(F)(F)F", "stereo": "stereo not given", "effect": 94.79}
{"structure": "CSc1nccc(N2CCC3(CCCN(Cc4cccc(C)c4)C3)C2)n1", "stereo": "stereo not given", "effect": -6.831}
{"structure": "OCCN1CCC(F)(F)C2(CCN(c3cccnc3)C2)C1", "stereo": "stereo not given", "effect": 2.149}
{"structure": "[H][C@]12CC[C@@]([H])(C1)N(Cc1cc(-c3ccccc3)no1)C2", "effect": "22.19 and 41.73"}
{"structure": "COCCC(=O)N1CCC2(CC1)CC(c1ccccc1)CN(C1CC1)C2", "stereo": "stereo not given", "effect": 7.913}
{"structure": "Cc1csc(CN(C)c2cc(C)nc3c(C)c(C)nn23)n1", "effect": 38.19}
{"structure": "O=C1Nc2ccccc2CN(CC2CC2)C12CCNC2", "stereo": "stereo not given", "effect": 4.779}
{"structure": "Cc1nc(N)cc(N2CCCC(COc3cccc(F)c3)C2)n1", "stereo": "stereo not given", "effect": 87.21}
{"structure": "CCN(CCn1c(=O)oc2ccccc21)CC1CCOCC1", "effect": "-10.35 and -1.764"}
{"structure": "CSc1ncnc(NCc2ccco2)c1C#N", "effect": -6.124}
{"structure": "O=S(=O)(NCC1CCOC1)N1CCc2ccccc2C1", "stereo": "stereo not given", "effect": -20.8}
{"structure": "[H][C@@]12C[C@@H](OC)C[C@]1([H])CN(C(=O)c1ccc(C)s1)C2", "effect": "38.84 and 69.12"}

For reference, 4 entries once more:

O=C(NC1CCN(c2ncccn2)CC1)c1sccc1C1CC1 gave -2.505%.
CCc1ccccc1NC(=O)NCc1nnc(SC)n1C gave 4.11% and 72.7%.
Cc1csc(CN(C)c2cc(C)nc3c(C)c(C)nn23)n1 gave 38.19%.
CSc1ncnc(NCc2ccco2)c1C#N gave -6.124%.

From ChEMBL document CHEMBL3988442, “University of Dundee, Small-Polar-MMV Screening Library” (2021).